According to publication PMC5701626:
The match of structure and compound is tentative.

Legend:
[1] = tested on: HLA A2 on T2 cells; assay: T2 peptide–HLA-A2 stability assay (HLA-A2 surface staining); details: T2 cells incubated with peptide 22 h, washed, cultured in excess AIM-V at 37°C; result in words
[2] = tested on: HLA A2; assay: pMHC stability by SPR (868 TCR binding over time at 37°C); details: SPR chip at 37°C, 868 TCR injected at 100 µM over 720 min, 8 time points, drop in RUs

SMILES: CC[C@H](C)[C@H](NC(=O)[C@@H](NC(=O)[C@H](CC(N)=O)NC(=O)[C@H](Cc1ccccc1)NC(=O)[C@H](CC(C)C)NC(=O)[C@@H](N)CO)[C@@H](C)O)C(=O)N[C@@H](C)C(=O)N[C@H](C(=O)N[C@@H](CC(C)C)C(=O)O)C(C)C
- HLA A2 remaining at T2 cell surface after peptide removal [1]: had decayed in half this time
- t1/2 [2]: 1.98 h
